Compound potency records, mixed from different reports. Data source: NIAID ChemDB in PubChem.

Shared fields: toxicity to cultured cells; cell line: Vero cells; read by: MTT; read-out: CC50

Conditions beyond the fields shown may differ between rows. CCn is the concentration with n% toxicity to the cells.

O=C(CNc1ccccc1)Sc1nnc(-c2ccncc2)o1 ; result: >62.5 µg/mL
O=C(NN1C(=O)c2c(F)c(F)c(F)c(F)c2C1=O)c1ccc(-n2cccc2)cc1 ; result: 265.4 µM
Cc1ccccc1NCC(=O)Sc1nnc(-c2ccncc2)o1 ; result: >62.5 µg/mL
Nc1cc(O)c(C(=O)O)cc1F ; result: >62.5 µg/mL
O=C(CNc1ccccc1O)Sc1nnc(-c2ccncc2)o1 ; result: >62.5 µg/mL
COc1c(O)cc(-c2oc3cc(O)cc(O)c3c(=O)c2OC)c(O)c1O ; result: 13.2 µg/mL
CCOC(=O)c1ccc(N2CCN(CCn3c(-c4ccc(Cl)cc4)nc4cc(C(=O)OCC)ccc43)CC2)c(N)c1 ; result: >62.5 µg/mL
COc1cc(O)c(-c2oc3cc(O)cc(O)c3c(=O)c2O)cc1O ; result: 30.42 µg/mL
c1ccc(-c2csc(-n3cccc3)n2)cc1 ; result: 233 µM
O=C(CNc1cccc(Cl)c1)Sc1nnc(-c2ccncc2)o1 ; result: >62.5 µg/mL
CCOC(=O)c1ccc(N2CCN(CCn3c(-c4cncc(-c5ccc(F)cc5)c4)nc4cc(C(=O)OCC)ccc43)CC2)c(N)c1 ; result: >62.5 µg/mL
Fc1ccc(-c2csc(-n3cccc3)n2)cc1 ; result: 261 µM
O=C(CNc1ccccc1[N+](=O)[O-])Sc1nnc(-c2ccncc2)o1 ; result: >62.5 µg/mL
Cc1ccc(C)n1-c1nc(-c2ccc(Br)cc2)cs1 ; result: 257 µM
O=C(CNc1ccccn1)Sc1nnc(-c2ccncc2)o1 ; result: >62.5 µg/mL
Cc1ccc(C)n1-c1ccc(C(=O)NN2C(=O)c3c(Br)c(Br)c(Br)c(Br)c3C2=O)cc1 ; result: 251 µM
CC(C)=C[C@@H]1C[C@H](C)C2CC[C@@H](C)c3c(O)cc(C)c1c32 ; result: 173 µM
CC[C@H](CC[C@@H](C)[C@H]1CCC2C3CC=C4CC(OC5O[C@H](CO)[C@@H](O)[C@H](O)[C@H]5O)CC[C@]4(C)C3CC[C@@]21C)C(C)C ; result: >100 µg/mL
C/C(=C\CC[C@H](C)C1CC[C@@H](C)c2c(O)cc(C)cc21)CN ; result: 215 µM
CCOC(=O)c1ccc(N2CCN(CCn3c(-c4ccccc4)nc4cc(C(=O)OCC)ccc43)CC2)c(N)c1 ; result: >62.5 µg/mL

A second listing of 2 rows from above:

compound | result
O=C(CNc1ccccc1[N+](=O)[O-])Sc1nnc(-c2ccncc2)o1 | >62.5 µg/mL
Fc1ccc(-c2csc(-n3cccc3)n2)cc1 | 261 µM